Results from PMC12326976 (Antimicrobial Agents and Chemotherapy, 2025).
Like-named read-outs stand apart in the source and are kept apart here.

Legend:
H1N1 virus [1] = assay: Drug-resistance testing by serial passage of H1N1; conditions: 15 passages (P15) with 4H30 2.5, 5.0 and 10.0 μg/mL for every five passages; Fig. 3d
H1N1 virus [2] = conditions: passages in the presence of zanamivir; cited from earlier work

SMILES | drug-resistant H1N1 virus after passaging in presence of drug (H1N1 virus [1]) | drug-resistant H1N1 virus after passaging in presence of drug (H1N1 virus [2])
CC[C@H](C)[C@H](NC(=O)[C@H](C)NC(=O)CN)C(=O)N[C@@H](CS)C(=O)N[C@@H](Cc1c[nH]cn1)C(=O)N1CCC[C@H]1C(=O)N[C@H](C(=O)N[C@@H](Cc1ccccc1)C(=O)N[C@@H](CS)C(=O)N1CCC[C@H]1C(=O)N[C@@H](CCCNC(=N)N)C(=O)N[C@@H](CCCNC(=N)N)C(=O)N[C@@H](Cc1ccc(O)cc1)C(=O)N[C@@H](CCCCN)C(=O)N[C@@H](CCC(N)=O)C(=O)N[C@H](C(=O)NCC(=O)N[C@H](C(=O)N[C@@H](CS)C(=O)NCC(=O)N[C@@H](CC(C)C)C(=O)N1CCC[C@H]1C(=O)NCC(=O)N[C@H](C(=O)N[C@@H](CCCCN)C(=O)N[C@@H](CS)C(=O)N[C@@H](CS)C(=O)N[C@@H](CCCCN)C(=O)N[C@@H](CCCCN)C(=O)N1CCC[C@H]1C(=O)NCCCC[C@H](NC(=O)[C@@H]1CCCN1C(=O)[C@H](CCCCN)NC(=O)[C@H](CCCCN)NC(=O)[C@H](CS)NC(=O)[C@H](CS)NC(=O)[C@H](CCCCN)NC(=O)[C@@H](NC(=O)CNC(=O)[C@@H]1CCCN1C(=O)[C@H](CC(C)C)NC(=O)CNC(=O)[C@H](CS)NC(=O)[C@@H](NC(=O)CNC(=O)[C@@H](NC(=O)[C@H](CCC(N)=O)NC(=O)[C@H](CCCCN)NC(=O)[C@H](Cc1ccc(O)cc1)NC(=O)[C@H](CCCNC(=N)N)NC(=O)[C@H](CCCNC(=N)N)NC(=O)[C@@H]1CCCN1C(=O)[C@H](CS)NC(=O)[C@H](Cc1ccccc1)NC(=O)[C@@H](NC(=O)[C@@H]1CCCN1C(=O)[C@H](Cc1c[nH]cn1)NC(=O)[C@H](CS)NC(=O)[C@@H](NC(=O)[C@H](C)NC(=O)CN)[C@@H](C)CC)C(C)C)[C@@H](C)CC)[C@@H](C)O)[C@@H](C)O)C(=O)NCCCC[C@H](NC(=O)[C@H](CCCCNC(=O)[C@@H]1CCCN1C(=O)[C@H](CCCCN)NC(=O)[C@H](CCCCN)NC(=O)[C@H](CS)NC(=O)[C@H](CS)NC(=O)[C@H](CCCCN)NC(=O)[C@@H](NC(=O)CNC(=O)[C@@H]1CCCN1C(=O)[C@H](CC(C)C)NC(=O)CNC(=O)[C@H](CS)NC(=O)[C@@H](NC(=O)CNC(=O)[C@@H](NC(=O)[C@H](CCC(N)=O)NC(=O)[C@H](CCCCN)NC(=O)[C@H](Cc1ccc(O)cc1)NC(=O)[C@H](CCCNC(=N)N)NC(=O)[C@H](CCCNC(=N)N)NC(=O)[C@@H]1CCCN1C(=O)[C@H](CS)NC(=O)[C@H](Cc1ccccc1)NC(=O)[C@@H](NC(=O)[C@@H]1CCCN1C(=O)[C@H](Cc1c[nH]cn1)NC(=O)[C@H](CS)NC(=O)[C@@H](NC(=O)[C@H](C)NC(=O)CN)[C@@H](C)CC)C(C)C)[C@@H](C)CC)[C@@H](C)O)[C@@H](C)O)NC(=O)[C@@H]1CCCN1C(=O)[C@H](CCCCN)NC(=O)[C@H](CCCCN)NC(=O)[C@H](CS)NC(=O)[C@H](CS)NC(=O)[C@H](CCCCN)NC(=O)[C@@H](NC(=O)CNC(=O)[C@@H]1CCCN1C(=O)[C@H](CC(C)C)NC(=O)CNC(=O)[C@H](CS)NC(=O)[C@@H](NC(=O)CNC(=O)[C@@H](NC(=O)[C@H](CCC(N)=O)NC(=O)[C@H](CCCCN)NC(=O)[C@H](Cc1ccc(O)cc1)NC(=O)[C@H](CCCNC(=N)N)NC(=O)[C@H](CCCNC(=N)N)NC(=O)[C@@H]1CCCN1C(=O)[C@H](CS)NC(=O)[C@H](Cc1ccccc1)NC(=O)[C@@H](NC(=O)[C@@H]1CCCN1C(=O)[C@H](Cc1c[nH]cn1)NC(=O)[C@H](CS)NC(=O)[C@@H](NC(=O)[C@H](C)NC(=O)CN)[C@@H](C)CC)C(C)C)[C@@H](C)CC)[C@@H](C)O)[C@@H](C)O)C(=O)O)[C@@H](C)O)[C@@H](C)O)[C@@H](C)CC)C(C)C [4H30] | no drug-resistant H1N1 virus was detected | –
CC(=O)N[C@H]1[C@H]([C@H](O)[C@H](O)CO)OC(C(=O)O)=C[C@@H]1N=C(N)N [zanamivir, reference compound] | – | zanamivir-resistant H1N1 virus could be generated after four passages
